Results taken from US20260137677A1, “PROTACS USEFUL AGAINST THE MAIN PROTEASE SARS-COV-2” (Tocris Cookson Limited, priority 2022, published 2026).
The structures given here were assigned with low confidence; some may be wrong.

What was measured:
[1] = biological target: recombinant SARS-CoV-2 main protease (Mpro) (Severe acute respiratory syndrome coronavirus 2, UniProt P0DTD1); assay: IC50 FRET assay, inhibition of recombinant SARS-CoV-2 main protease; settings: Mpro 50 nM, substrate 10 μM
[2] = system: SARS-CoV-2 (SARS-CoV2/ZG/297-20) in Vero E6 cells; assay: Antiviral assay in Vero E6 cells infected with SARS-CoV-2 (cell viability, Cell Titer Glo); settings: Vero E6, MOI 0.05; for Antiviral Activity 10 uM: 10 uM compound; for Antiviral Activity 50 uM: 50 uM compound
Description: Vero E6 cells (2×10^4/well) were seeded in 96 well plates one day before the experiment. Pre-treatment, the medium was removed and compounds were added at concentrations varying from 0.1-100 μM. After 24 h incubation, the medium was removed and cells were infected with MOI 0.05 SARS-CoV-2 SARS-CoV2/ZG/297-20. After 1 h infection, the viruses were removed and the same concentration of compounds were added back into the cells. After 72 h incubation at 37° C., EC50 measurements were made using ATP quantification (Cell Titer Glo).

| SMILES | IC50 [1] | Antiviral Activity 10 uM [2] | Antiviral Activity 50 uM [2] |
| --- | --- | --- | --- |
| O=C1CCC(N2C(=O)c3cccc(NCCOCCOCCOCCOCCNC(=O)[C@H](NC(=O)[C@@H](c4cccnc4)N(C(=O)c4ccco4)c4ccc(-c5ccccc5)cc4)c4ccccc4)c3C2=O)C(=O)N1 (stereo partly drawn) | < 1 µM | E (<0%=E) | E (<0%=E) |
| O=C1CCC(N2C(=O)c3cccc(NCCCCCCCCCCNC(=O)C(NC(=O)C(c4cccnc4)N(C(=O)c4ccco4)c4ccc5c(c4)oc4ccccc45)c4ccccc4)c3C2=O)C(=O)N1 (stereo not drawn) | > 25 µM | E (<0%=E) | D (<25%=D) |
